The values below are quoted from earlier work in PMC11106745 (ACS Chemical Biology, 2024).

This data set addresses SARS-CoV-2 Mac1 (Severe acute respiratory syndrome coronavirus 2, UniProt P0DTD1). The conditions noted are these: HTRF-based displacement assay; cited from earlier work. Background: TR-FRET usually uses a lanthanide donor and a delayed reading to cut background.

One may read the IC50 as the concentration at which inhibition is half-maximal. For the substance “adenosine diphosphate ribose [ADPr, reference compound]”, the IC50 is about 1000 nM.
